The exact form of at least one protein or probe is not confirmed. At least one verdict rests on a figure or table, not on a statement of the authors. Tags and fusion partners may be left off the protein sequences shown.
Target: T1, B95-8 EBNA1 DBD (Epstein-Barr virus (strain B95-8)) (UniProt P03211)
T1 sequence (looked up): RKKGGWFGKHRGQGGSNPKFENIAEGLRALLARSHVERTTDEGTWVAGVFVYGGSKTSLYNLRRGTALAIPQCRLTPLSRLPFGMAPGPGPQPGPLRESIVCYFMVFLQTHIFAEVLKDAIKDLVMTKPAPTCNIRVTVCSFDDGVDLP
Assay: X-ray crystal structure
Settings: DNA sequence in Methods is given for the NPC crystal only; Crystals: 0.2 M ammonium acetate, 0.15 M Mg acetate, 0.05 M Hepes pH 7.0, 5% PEG 4000; recombinant protein; residues 459-607; protein details: His6-SUMO tag, cleaved

Question: Does “GGATAGCCTATGCTACCC (double strand) [single EBNA1 dimer site (crystal)]” bind?
Answer: binds

Reference: article PMC5352318, “Carcinoma-risk variant of EBNA1 deregulates Epstein-Barr Virus episomal latency”
